# Measured data: PubChem BioAssay AID624099 (ICCB-Longwood, 2012)
# Screen: 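Knock-downs relieving repression by E2 of an HPV18 LCR luciferase reporter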 (primary screen)
# System: human C33A cervical carcinoma cells (HPV-negative) stably expressing BPV1 E2 and an HPV18 LCR luciferase reporter
# Reagents: siRNA pool against human genes, 40 nM
# Timing: 72 h
# Read-out: 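Per-well luciferase luminescence, z-scored on each plate against the plate mean and SD with control wells left out, then averaged across three replicate plates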
# Reading the numbers: mean z-score and z-score: higher = stronger reporter signal, weaker E2 silencing
# Hit rule: 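Mean z ≥ 2 together with z ≥ 2 in two or more of the three replicates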
# Shown is one part, drawn at random, of about 21,000 reagents. 497 of them (2.4%) were called active. 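Higher z means weaker E2 silencing; only reporter increases were scored, and knock-downs that hurt cell survival may mask genuine repressor factors.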 Entries without a mark were called inactive. Reagents against one gene are numbered here. Reagent sequences are not shown.
Target gene,reagent,mean z-score,"z-score, replicate A","z-score, replicate B","z-score, replicate C"
CYP4F11,1,-0.6,-0.57,-0.48,-0.74
LOC401210 (retired record),1,0.23,0.14,-0.02,0.58
GALK1,1,1.28,1.19,0.99,1.65
PPP1R9A,1,0.83,0.78,1.03,0.68
LDLRAD4,1,0.39,0.69,0.26,0.24
MAB21L1,1,-0.03,-0.07,-0.19,0.17
ASB7,1,-0.26,-0.06,-0.06,-0.65
ATP1A2,1,1.17,0.87,1.25,1.38
LOC388949 (retired record),1,0.51,0.94,0.2,0.4
RPN1,1,0.12,-0.23,0.31,0.28
SLC25A25,1,-0.38,-0.69,-0.34,-0.1
VCL,1,-0.57,-0.7,-0.64,-0.36
SHROOM1,1,0.51,0.71,0.55,0.28
UBAP2,1,0.3,0.42,0.15,0.32
COL4A6,1,1.83,1.79,1.67,2.02
SPAG4,1,1.31,1.44,1.22,1.27
TTC3P1,1,0.35,0.49,0.3,0.24
ZBTB39,1,-0.38,-0.16,-0.62,-0.37
FAM241A,1,-1.09,-1.19,-1.09,-0.98
TELO2,1,-0.31,-0.21,-0.31,-0.39
ZNF101,1,-0.69,-0.96,-0.62,-0.48
UNC5C,1,-0.74,-0.91,-0.8,-0.5
CPNE3,1,-0.36,-0.4,-0.35,-0.34
DEPTOR,1,-0.91,-0.83,-0.83,-1.07
MTCH2,1,0.43,0.35,0.52,0.44
MSN,1,-0.63,-1.09,-0.29,-0.52
SKI,1,-0.1,-0.17,-0.04,-0.08
TNNI1,1,0.11,-0.01,0.35,0
RAPSN,1,0.45,0.36,0.69,0.31
OGN,1,-0.73,-0.86,-0.62,-0.72
TYMS,1,-0.51,-0.11,-0.83,-0.58
CTSL,1,0.3,0.17,0.22,0.52
FLYWCH1,1,1.46,1.16,1.8,1.41
LOC101928906,1,0.72,0.76,0.56,0.86
HCST,1,-2.05,-1.82,-2.12,-2.19
NCK2,1,0.02,-0.19,0.08,0.17
C10orf71,1,-0.17,-0.21,0.03,-0.33
ZNF568,1,0.31,0.21,0.45,0.27
ZNF568,2,1.28,1.24,1.44,1.15
ZNF568,3,-1.18,-1.3,-1.03,-1.2
TAS2R45,1,1.38,1.04,1.6,1.48
JOSD2,1,0.87,0.77,0.62,1.2
SPNS3,1,0,-0.05,0.53,-0.48
CTU2,1,-1.99,-1.94,-2.07,-1.98
RNF6,1,-0.77,-0.77,-0.98,-0.57
NOVA2,1,0.21,0.34,0.4,-0.13
CALM3,1,0.18,-0.22,0.43,0.33
CRYBA4,1,-0.54,-0.53,-0.51,-0.58
NUMA1,1,0.92,0.56,0.66,1.53
PNOC,1,-0.36,-0.46,-0.39,-0.22
TFAP4,1,0.19,0.14,0.32,0.11
UPP1,1,1.6,1.27,1.96,1.58
LSM11,1,1.71,1.37,1.89,1.87
EPHA4,1,-0.71,-0.09,-1.08,-0.96
MS4A6E,1,-1.51,-1.67,-1.51,-1.36
RASIP1,1,-0.27,0.04,-0.36,-0.48
MYBL1,1,-0.99,-0.91,-1.23,-0.83
GTF2H3,1,-0.63,-0.72,-0.55,-0.63
SLC26A2,1,-0.58,-0.48,-0.39,-0.88
MAP4K1,1,1.05,1.33,0.86,0.97
PDLIM7,1,0.55,0.49,0.68,0.48
PREP,1,0.74,1.09,0.48,0.65
LOC340148 (retired record),1,0.9,0.82,1.01,0.86
KRT8P12,1,-1.71,-1.86,-1.66,-1.62
LY75,1,0.72,0.99,0.74,0.44
SPACA4,1,0.76,0.56,0.87,0.84
MRPS26,1,-0.66,-1.11,-0.8,-0.08
CENPV,1,0.89,0.99,1.27,0.41
C1orf159,1,0.91,1.09,1.06,0.56
SLC2A6,1,-1.38,-1.27,-1.2,-1.66
MRPS27,1,0.94,1.67,0.46,0.68
FAP,1,0.57,0.48,0.88,0.35
GFRA1,1,1.1,1.15,1.04,1.12

Records above whose target name starts with C or c (10):
Target gene,reagent,mean z-score,"z-score, replicate A","z-score, replicate B","z-score, replicate C"
CYP4F11,1,-0.6,-0.57,-0.48,-0.74
COL4A6,1,1.83,1.79,1.67,2.02
CPNE3,1,-0.36,-0.4,-0.35,-0.34
CTSL,1,0.3,0.17,0.22,0.52
C10orf71,1,-0.17,-0.21,0.03,-0.33
CTU2,1,-1.99,-1.94,-2.07,-1.98
CALM3,1,0.18,-0.22,0.43,0.33
CRYBA4,1,-0.54,-0.53,-0.51,-0.58
CENPV,1,0.89,0.99,1.27,0.41
C1orf159,1,0.91,1.09,1.06,0.56
